Reference: paper PMC3039689, “Identification of Small Molecule Lead Compounds for Visceral Leishmaniasis Using a Novel Ex Vivo Splenic Explant Model System” (PLoS Neglected Tropical Diseases, 2011)

Test system: luciferase-transfected Leishmania donovani
Assay: Anti-leishmanial efficacy (EC50) in the ex vivo splenic explant model
Assay type: cell-based
Settings: CC50 HepG2 / EC50 ex vivo model
Experimental: To establish the plate assay for drug screening, the spleens from 2 infected hamsters were aseptically removed and placed in a Petri dish containing 5 mL of Collagenase D (Roche) at 2 mg/mL of buffer (10 mM Hepes pH 7.4, 150 mM NaCl, 5 mM KCl, 1 mM MgCl2, 1.8 mM CaCl2). The spleen was infiltrated by injection with approximately 2 mL of Collagenase solution, the tissue was cut into small pieces using sharp scissors, and incubated for 20 minutes at 37°C. The cell suspension and remaining tissue fragments were gently passed through a 100 µm cell strainer (B–D) to obtain a single cell suspension, which was washed twice by centrifugation (500 g for 7 min at 4°C) and re-suspended in culture medium composed of DMEM (Gibco), 5% FBS, 1 mM Sodium pyruvate (Gibco), 1X MEM amino acids solution (Sigma), 0.02% v/v/EDTA, 10 mM HEPES buffer (Cellgro) and 100 IU/mL Penicillin/100 […] Streptomycin solution (Cellgro).
The anti-leishmanial efficacy of the compounds was determined using the splenic explant model in a 96-well plate format. […] Because variation in the parasite burden between different explant cultures was expected, the concentration of cells used in each experiment was adjusted to give approximately 100 counts by luminometry (equivalent to ∼240,000 parasites). The number of surviving parasites was determined by luminometry as described above.

7-(2-(6-Ethoxy-1-methyl-1.lambda.~5~-quinolin-2-yl)vinyl)-5-methyl-8-quinolinol; Quinolinium, {6-ethoxy-2-[2-(8-hydroxy-5-methyl-7-quinolyl)vinyl]-1-methyl-} iodide
IVTI (in vitro therapeutic index): 8.1 ratio

Benzalkonium Chloride [reference compound]
IVTI (in vitro therapeutic index): 6.1 ratio
